Molecules are shown by their SMILES. The entries are a selection whose mix differs from that of the whole data set. Results filed as inconclusive are left out. Calls of active or inactive are those of the source. The call rests on the fitted dose curve.
On the % scale 0 is the no-effect control and ±100 the full control effect.

A short description of the assay: Primary qHTS Assay for Foot and Mouth Disease Virus Antivirals against NCGC Sytravon and CBC Compound Libraries: Firefly Luciferase Signal. Further: nearly all actives have a fitted effect of over 60% in size. Particulars: FMDV antiviral cell assay; at 57.5 µM (top of the series) unless noted.
With `O=C(NCC1(N2CCCCC2)CCCCC1)c1c[nH]c2ccccc12`, the activity change, negative = inhibition was inactive: -10.7%. For the compound `Cc1ccc(C(C)CCN(CCCl)CCCl)cc1` (stereo not given), the activity change, negative = inhibition is inactive: -16.2%.

Take `CCCOc1ccccc1C(=O)NCC1(N2CCOCC2)CCCCC1`: the activity change, negative = inhibition is inactive: 2.51%. Take `COc1ccccc1C(=O)NCC1(N2CCOCC2)CCCCC1`: the activity change, negative = inhibition was inactive: -13.5%. In the case of `CN(C)C1(CNC(=O)c2nn(C)c(=O)c3ccccc23)CCCCC1`, the activity change, negative = inhibition is inactive: 15.3%. As for `O=C(NCC1(N2CCOCC2)CCCCC1)c1ccc(Cl)cc1`, the figure is inactive: -28.4%; as for `Fc1ccc(CN2CCC(Nc3ccccc3Cl)CC2)cc1`, inactive: -34%.

On to `CC1CN(CCc2ccccc2)CCC1=O` (stereo not given), for which the activity change, negative = inhibition was inactive: -0.725%.

For the compound `CCOC(=O)N1CCC(=O)CC1`, the activity change, negative = inhibition is inactive: -15%. Regarding `O=C(NCC1(N2CCOCC2)CCCCC1)c1c[nH]c2ccccc12`, the activity change, negative = inhibition is inactive: -5.84%.

In the case of `O=C(NCC1(N2CCOCC2)CCCCC1)c1ccccc1Br`, the activity change, negative = inhibition is inactive: -11.3%. In the case of `CCCCOc1ccccc1C(=O)NCC1(N2CCOCC2)CCCCC1`, the activity change, negative = inhibition was inactive: -19.9%. As for `COc1ccccc1C(=O)NCC1(N(C)C)CCCCC1`, the figure is inactive: -7.14%.

As for `CCc1cc(C(=O)NCC2(N3CCOCC3)CCCCC2)sc1C`, the activity change, negative = inhibition is inactive: -20%. On to `CCCOc1cccc(C(=O)NCC2(N(C)C)CCCCC2)c1`, for which the activity change, negative = inhibition is inactive: 7.51%. As for `CCCOc1cccc(C(=O)NCC2(N3CCOCC3)CCCCC2)c1`, the figure is inactive: -22.8%; as for `O=C(NCC1(N2CCOCC2)CCCCC1)c1cc2c(s1)CCCC2`, inactive: -6.02%; as for `CCOc1ccc(C(=O)NCC2(N3CCOCC3)CCCCC2)cc1`, inactive: 5.43%. As for `Brc1ccc(NC2CCN(Cc3cccc(Br)c3)CC2)cc1`, the figure is inactive: -0.149%; as for `O=C(NCC1(N2CCOCC2)CCCCC1)c1ccccc1`, inactive: -7.4%; as for `O=C(NCC1(N2CCOCC2)CCCCC1)c1ccccc1[N+](=O)[O-]`, inactive: -13.6%.

In the case of `CC1C(=O)CCN(CCc2ccccc2)C1C` (stereo not given), the activity change, negative = inhibition is inactive: 2.03%.

For the compound `O=C(NCC1(N2CCOCC2)CCCCC1)c1ccc([N+](=O)[O-])cc1`, the activity change, negative = inhibition is inactive: -1.18%. Regarding `Fc1ccc(CN2CCC(Nc3ccc(Br)cc3)CC2)cc1`, the activity change, negative = inhibition is inactive: -8.21%. `Cc1cc(NC2CCN(Cc3ccccc3)CC2)ccc1Br`: the activity change, negative = inhibition is inactive: 7.13%. `Cn1nc(C(=O)NCC2(N3CCOCC3)CCCCC2)c2ccccc2c1=O`: the activity change, negative = inhibition is inactive: 9.53%.

Take `O=C(NCC1(N2CCCCC2)CCCCC1)c1n[nH]c(=O)c2ccccc12`: the activity change, negative = inhibition is inactive: 8.54%.

Consider `CCC(=O)N(c1ccccc1)C1CCNCC1`, for which the activity change, negative = inhibition is inactive: -7.67% [at 11.5 µM]. As for `O=C(NCC1(N2CCOCC2)CCCCC1)c1n[nH]c(=O)c2ccccc12`, the figure is inactive: 17.6%; as for `COc1cc(C(=O)NCC2(N3CCOCC3)CCCCC2)cc(OC)c1OC`, inactive: -2.21%. As for `CCCOc1ccc(C(=O)NCC2(N(C)C)CCCCC2)cc1`, the activity change, negative = inhibition was inactive: -14.6%.

On to `Cc1ccc2oc(C(=O)NCC3(N4CCCCC4)CCCCC3)cc(=O)c2c1`, for which the activity change, negative = inhibition is inactive: 48.1%. As for `CCCOc1ccccc1C(=O)NCC1(N(C)C)CCCCC1`, the figure is inactive: 4.63%; as for `Clc1ccccc1CN1CCC(Nc2ccc(Br)cc2)CC1`, inactive: 17.9%; as for `Cc1ccccc1C(=O)NCC1(N(C)C)CCCCC1`, inactive: -13.1%.

As for `CC1CN(CCc2ccccc2)C(C)CC1=O` (stereo not given), the activity change, negative = inhibition was inactive: 0.454%. In the case of `CC(C)(C)c1ccc(C(=O)NCC2(N3CCOCC3)CCCCC2)cc1`, the activity change, negative = inhibition is inactive: -14.8%. As for `Cn1cc(C(=O)NCC2(N3CCOCC3)CCCCC2)c2ccccc21`, the figure is inactive: -17.6%. As for `CN(C)C1(CNC(=O)c2ccc(C(C)(C)C)cc2)CCCCC1`, the figure is inactive: -9.24%; as for `CN(C)C1(CNC(=O)c2cc3c(s2)CCC3)CCCCC1`, inactive: 69.3%.
